Test system: Middle East respiratory syndrome-related coronavirus
Assay: Potency index, ratio of HR2P-M2 EC50 to test compound EC50 for inhibition of EGFP-fused MERS-CoV spike protein mediated cell-cell fusion between viral protein expressing human 293T cells and human HuH7 target cells

## CSCC[C@H](NC(=O)[C@H](CCC(=O)O)NC(=O)[C@H](Cc1ccc(O)cc1)NC(=O)[C@@H](NC(=O)[C@H](CC(C)C)NC(=O)[C@H](CC(=O)O)NC(=O)[C@H](CC(C)C)NC(C)=O)[C@@H](C)O)C(=O)N[C@@H](CC(C)C)C(=O)N[C@@H](CO)C(=O)N[C@@H](CC(C)C)C(=O)N[C@@H](CCC(N)=O)C(=O)N[C@@]1(C)CCC/C=C\CCC[C@@](C)(C(=O)N[C@@H](CC(C)C)C(=O)N[C@@H](CC(N)=O)C(=O)N[C@@H](CCC(=O)O)C(=O)N[C@@H](CO)C(=O)N[C@@H](Cc2ccc(O)cc2)C(N)=O)NC(=O)[C@H](CCCCN)NC(=O)[C@H](C(C)C)NC(=O)[C@H](C(C)C)NC1=O
  Ratio EC50: 2.8

— ChEMBL document CHEMBL4118106 (J Med Chem, 2018)
